Data: article PMC10184898

Molecular target: MoCrn1 (MST) (Magnaporthe oryzae)
Test: MST
Details: natural protein

For His-MoRgs7, which Kd is on record?
Its Kd is 1350 nM.
